For at least one entry, the source does not settle the construct or the ends of the probe.

This is an account of results in article PMC10294627, “PhoPQ Regulates Quinolone and Cephalosporin Resistance Formation in Salmonella Enteritidis at the Transcriptional Level” (mBio, 2023).

For this series, the system named is PhoP (phosphorylated, PhoP-P). The series can be described thus: EMSA. The settings on record: PhoP-P 1-8 ug in 20 uL, 25 nM probe, 2 mM Mg2+, poly(dI-dC), 10 mM Tris pH 8.0, 125 mM KCl, 5% glycerin, 2 mM MgCl2, 0.01 mg/mL BSA, 1 mM DTT, 0.5 ug poly(dI-dC), 30 C 30 min, 5% native PAGE, recombinant protein, residues 1-224, protein details: N-terminal His (pET28a), label: FAM (forward primer), probe letters rebuilt from the primers and the genome.

On to “ACAACGGTTCTACAAGCCAATAATTACAATAAAATCATAGTGATAAAAGAAAAACGATCAAATCAAAGCGAGAACTCAGGGGAAGTTTGACGTTGTTCACAAAGTTCCGCGAAAATAACATTTGTTTACATATTTTTTCCTTTTGAAACTAAATCTTTATATTTGTAGCACTTTCACGGTAGCGAAACGTTAGTTTGAATGGAAAGATGCCTGTCAGACAC (double strand) [PompF-FAM]”, for which, for the setting “abolished by 50x unlabeled PompF”, the binding result was “binds”.

Regarding “TGCCGTCTAATCTCGTCAAAGCCCGATAATGCGTTATTTATCGGGCTTTTTCATCTTCGTTCCTCGCCTGTTAGGTTTCTCCTCTTTTAGCAATTTGGGTTGTTATCAAAACGTTACATTTTGTTTGTGTTATCTTTAATACAACCCTGTGGAGAATCAGGGTAACGCAACCCTGTCATTTAAGGAGGAGCTATGTCGTCAACCCTACGAGAAGCCAGTAAGGATACATTG (double strand) [PacnA-FAM]”, the binding result (abolished by 50x unlabeled PacnA) was “binds”.
